PubChem BioAssay AID504761, Drosophila RNAi Screening Center | 2011
The screen tested about 22,000 reagents; this is an unselected part of those that have a named target and a result. Of all reagents, 116 (0.52%) are marked active. 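Calls depend on retest data that are not deposited; infection was ranked per plate without normalising between plates; the unit of the infection score is not given.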 Raw values vary from plate to plate and are shown uncorrected. Entries without a mark were called inactive. Names joined by + are all predicted targets of the reagent. Not given: the amount of reagent, the time to read-out.

- Screen: 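Insect host genes that dengue virus relies on to spread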 (primary screen)
- Cell system: D.Mel-2 cells from Drosophila
- Reagents: long dsRNA against Drosophila genes
- Challenge: infection with dengue virus type 2; dose and infection time not stated
- Detection: 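Per well on two replicate plates, imaging gave the percent of cells positive for viral envelope protein, ranked by infection, and a nuclear count of cells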
- Reading the numbers: infection score: higher = more virus-infected cells; cell count: higher = more cells in the well
- Active means: 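Low infection ranks in the two replicates (chance level up to 0.065) followed by a retest with a 1.5-fold or larger significant decrease, p below 0.05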
- Calls: active = confirmed: knock-down lowers infection; inactive = not picked or not confirmed

target | amplicon | infection score, replicate 1 | infection score, replicate 2 | cell count, replicate 1 | cell count, replicate 2
ND-49 | DRSC17151 | 7.8 | 2.06 | 2193 | 4269
modSP | DRSC16726 | 15.3 | 7.41 | 6863 | 6964
modSP | DRSC16857 | 2.46 | 11.7 | 6669 | 3919
modSP | DRSC21489 | 3 | 10.7 | 5708 | 6192
CG10651 | DRSC02086 | 7.35 | 5.48 | 6309 | 6934
CG7289 | DRSC00697 | 3.41 | 9.58 | 6279 | 6515
CG4598 | DRSC02763 | 19.1 | 8.08 | 5314 | 6005
CG11353 | DRSC08182 | 15.4 | 17.6 | 5724 | 5675
zpg | DRSC09702 | 1.65 | 4.37 | 5582 | 5383
zpg | DRSC26258 | 6.59 | 3.85 | 6371 | 6078
Hat1 | DRSC12298 | 2.38 | 11.3 | 6400 | 6420
Hat1 | DRSC29235 | 13.6 | 15.7 | 4856 | 5385
CG8541 | DRSC10989 | 3.16 | 0.36 | 5941 | 6408
CG8541 | DRSC25235 | 9.67 | 14.5 | 5779 | 5471
CG10353 | DRSC19354 | 4.21 | 6.16 | 6275 | 6522
CG10353 | DRSC29888 | 20.4 | 9.54 | 6089 | 6091
Sap30 | DRSC19916 | 11.5 | 5.63 | 5542 | 5865
cyc | DRSC11337 | 2.58 | 8.73 | 6367 | 6243
CG10237 | DRSC02029 | 8.31 | 12.1 | 6546 | 6075
park + Targ3 | DRSC11617 | 3.11 | 11.5 | 6499 | 6578
AP-1mu | DRSC14089 | 3.84 | 5.26 | 6716 | 6638
AP-1mu | DRSC25744 | 0.79 | 2 | 6355 | 6049
TwdlO | DRSC16043 | – | 10.3 | 350 | 1454
PIP5K59B | DRSC04290 | 2.68 | 20.2 | 6237 | 5363
PIP5K59B | DRSC04403 | 2.94 | 3.67 | 6945 | 6861
CG8952 | DRSC20133 | 1.82 | 1.12 | 6608 | 6529
CG18048 | DRSC12573 | 3.04 | 24.9 | 6772 | 5644
CG18048 | DRSC29053 | 10.3 | – | 4856 | 325
Nazo | DRSC14343 | 7.01 | 16 | 6591 | 5531
scaRNA:MeU5-C46 | DRSC36572 | 3.09 | 3.25 | 6435 | 6590
zuc | DRSC02160 | 16 | 13.9 | 6179 | 6187
Aef1 | DRSC11605 | 9.09 | 7.78 | 5711 | 5863
CG43328 | DRSC05640 | 0.45 | 0.14 | 6243 | 5779
E(spl)m5-HLH | DRSC16695 | 22.6 | 2.15 | 3966 | 7334
E(spl)m5-HLH | DRSC28232 | 13.7 | 20.8 | 4977 | 4928
Tsp26A | DRSC03135 | 9.05 | 12.6 | 5437 | 2832
Mt2 | DRSC03374 | 2.1 | 3.08 | 6756 | 6554
Tak1 | DRSC20390 | 2.83 | 4.46 | 6181 | 6478
Tak1 | DRSC20561 | 6.89 | 1.68 | 6289 | 5703
Tak1 | DRSC20562 | 4.86 | 1.74 | 6229 | 6047
Hex-C | DRSC07079 | 6.91 | 9.86 | 6653 | 5600
Hex-C | DRSC24095 | 4.02 | 4.46 | 6640 | 6567
GluRIIB | DRSC03335 | 5.27 | 4.96 | 6548 | 6811
Lam | DRSC03359 | 2.11 | 3.33 | 5641 | 5613
Lam | DRSC28152 | 14.8 | 13.5 | 6125 | 5295
sofe | DRSC19751 | 8.81 | 7.06 | 6337 | 6441
Iml1 | DRSC08249 | 26.1 | 4.39 | 4416 | 706
CG33251 (retired record) + CG9915 | DRSC20217 | 13 | 5.19 | 5117 | 5991
Gss1 + Gss2 | DRSC20008 | 0.99 | 1.55 | 6771 | 6397
Gss1 + Gss2 | DRSC21539 | 1.18 | 4.88 | 6122 | 6514
Coq8 | DRSC19900 | 2.46 | 2.41 | 568 | 787
CG31937 | DRSC00514 | 3.41 | 1.57 | 6480 | 6003
euc | DRSC14492 | 8.39 | 0.83 | 5649 | 6500
PGRP-LE | DRSC20137 | 1.49 | 12.9 | 6585 | 6122
CG10209 | DRSC05980 | 5.77 | 12.2 | 6273 | 6476
Wnt2 | DRSC05160 | 7.99 | 4.83 | 6159 | 6217
Wnt2 | DRSC07574 | 9.33 | 3.95 | 6751 | 6631
CG34443 | DRSC29357 | 14.3 | 4.53 | 5652 | 4883
TwdlE | DRSC02392 | 4.72 | 2.67 | 6460 | 6563
TwdlE | DRSC24943 | 2.16 | 1.77 | 6519 | 6505
CG5776 | DRSC02891 | 23.2 | 13 | 5998 | 6364
CG5770 | DRSC06954 | 18.8 | 9.81 | 5832 | 6321
CG5770 | DRSC24281 | 2.38 | 4.24 | 6465 | 5707
CG5280 | DRSC10498 | 4.17 | 11.5 | 5466 | 5882
CG5280 | DRSC22835 | 1.2 | 12 | 6085 | 6172
Spn42Da | DRSC05025 | 3.62 | – | 856 | 350
Gr39b | DRSC01848 | 1.27 | 0.66 | 6361 | 6247
Gr39b | DRSC26464 | 4 | 6.13 | 5796 | 5905
Pura | DRSC08891 | 1.4 | 1.02 | 4867 | 5695
Pura | DRSC10862 | 2.03 | 11.7 | 6107 | 6024
Pura | DRSC10864 | 1.7 | 1.58 | 6532 | 5950
Pura | DRSC10865 | 2.55 | 4.52 | 6632 | 6037
Pura | DRSC10866 | 3.11 | 0.77 | 6075 | 6331
Pura | DRSC26606 | 6.69 | 4.94 | 6431 | 5390
